Measured values from the NIST ThermoML archive (doi:10.1016/j.fluid.2013.09.036).

Assay: xn = mol fraction of the nth substance listed
Details: Liquid, Other PVT measurement

COC[N+]1(C)CCCC1.O=S(=O)(F)[N-]S(=O)(=O)F + O=C=O
Details	molar volume [m3/mol]
298.15 K, 592.4 kPa, x2 = 0.13	0.000197
298.15 K, 1052.3 kPa, x2 = 0.213	0.0001817
298.15 K, 1496.9 kPa, x2 = 0.282	0.0001691
298.15 K, 1824.7 kPa, x2 = 0.326	0.000161
298.15 K, 2530.6 kPa, x2 = 0.406	0.0001462
298.15 K, 3022.4 kPa, x2 = 0.454	0.0001375
298.15 K, 3587.3 kPa, x2 = 0.501	0.0001288
298.15 K, 4115.6 kPa, x2 = 0.538	0.0001219
298.15 K, 4600.7 kPa, x2 = 0.569	0.0001164
313.15 K, 696.2 kPa, x2 = 0.116	0.0002015
313.15 K, 1173.9 kPa, x2 = 0.183	0.0001891
313.15 K, 1500.7 kPa, x2 = 0.223	0.0001816
313.15 K, 1939.8 kPa, x2 = 0.273	0.0001725
313.15 K, 2566.9 kPa, x2 = 0.334	0.000161
313.15 K, 3096.9 kPa, x2 = 0.378	0.0001527
313.15 K, 3529 kPa, x2 = 0.411	0.0001466
313.15 K, 3965.6 kPa, x2 = 0.44	0.0001411
313.15 K, 4630.9 kPa, x2 = 0.48	0.0001337
333.15 K, 674.6 kPa, x2 = 0.084	0.0002096
333.15 K, 1089.9 kPa, x2 = 0.128	0.0002011
333.15 K, 1522.8 kPa, x2 = 0.171	0.0001931
333.15 K, 1737.7 kPa, x2 = 0.19	0.0001894
333.15 K, 2395.5 kPa, x2 = 0.244	0.0001792
333.15 K, 2714.6 kPa, x2 = 0.269	0.0001746
333.15 K, 3315.3 kPa, x2 = 0.309	0.000167
333.15 K, 4107 kPa, x2 = 0.358	0.0001579
333.15 K, 4917.1 kPa, x2 = 0.4	0.0001502
